Results of unrelated studies side by side (data: NIAID ChemDB).

Shared fields: tests on isolated targets; species: HIV-1; protein: Protease

Lines come from different laboratories, so protocols vary. ICn: concentration for n% inhibition. An empty or dashed field is not shown.

structure,endpoint,changes,method,strain,value
Cc1ccccc1CNC(=O)[C@H]1N(C(=O)[C@@H](O)[C@H](Cc2ccccc2)NC(=O)c2cccc(O)c2C)CSC1(C)C,IC50,-,HPLC,-,<0.05 µg/mL
CC(=O)N[C@@H](Cc1ccccc1)C(O)[C@H](Cc1ccccc1)NC(C)=O,IC50,-,fluorescence,-,<50 µM
CC(C)[C@H](NC(=O)CNC(=O)OCc1ccccc1)C(=O)N[C@@H](Cc1ccccc1)[C@@H](O)[C@H](O)[C@H](Cc1ccccc1)NC(=O)[C@@H](NC(=O)CNC(=O)OCc1ccccc1)C(C)C,Ki,-,-,-,0.0017 µM
O=[P@]12OC([C@@H](O)[C@@H](Cc3ccccc3)N1Cc1ccc(CO)cc1)[C@@H](Cc1ccccc1)N2Cc1ccc(CO)cc1,Ki,-,substrate cleavage,-,0.0006 µM
CC[C@H](C)[C@H](NC(=O)[C@@H](Cc1ccccc1)C[C@@H](O)[C@H](Cc1ccccc1)NC(=O)OC(C)(C)C)C(=O)N[C@@H](Cc1ccccc1)C(N)=O,Ki,-,absorbance,-,0.0018 µM
CCCCCCCCCCCCCCCC(=O)N[C@H](C(=O)N[C@H](C(=O)N[C@@H](CO)C(=O)N[C@@H](Cc1ccc(O)cc1)C(=O)N[C@@H](CCC(=O)O)C(=O)N[C@@H](CC(C)C)C(=O)O)C(C)C)[C@@H](C)O,Ki,-,-,-,0.2 µM
O=C1OC(CCc2ccccc2)(c2ccccc2)CC(O)=C1SCc1ccccc1,IC50,-,substrate cleavage,-,0.1 µM
CNC(=O)[C@H](OCc1ccccc1)[C@H](O)[C@@H](O)[C@@H](OCc1ccccc1)C(=O)N[C@H]1c2ccccc2C[C@H]1O,Ki,-,fluorescence,-,0.002 µM
O=[P@]12O[C@@H]([C@@H](O)[C@@H](Cc3ccccc3)N1Cc1ccccc1)[C@@H](Cc1ccccc1)N2Cc1ccccc1,Ki,-,substrate cleavage,-,0.044 µM
CCCC[C@@H](CN[C@@H](CCCC)C(=O)N[C@@H](CCC(N)=O)C(=O)N[C@@H](CCCN=C(N)N)C(N)=O)NC(=O)[C@@H](NC(=O)[C@@H](NC(C)=O)[C@@H](C)O)[C@@H](C)CC,Ki,-,substrate cleavage,-,0.81 µM
CC[C@H](C)[C@H](NC(=O)[C@H](C(C)C)[C@@H](O)[C@H](O)[C@H](CC1CCCCC1)NC(=O)[C@H](Cc1cnc[nH]1)NC(=O)COc1cccc2ccccc12)C(=O)NCc1cccnc1,Ki,-,-,-,<0.001 µM
CNC(=O)[C@@H](NC(=O)[C@H](OCc1ccccc1)[C@H](O)[C@@H](O)[C@@H](OCc1ccccc1)C(=O)N[C@H](C(=O)NC)C(C)C)C(C)C,Ki,-,substrate cleavage,-,0.0004 µM
CC[C@H](C)[C@H](NC(=O)[C@H](Cc1ccccc1)C[C@H](O)[C@H](Cc1ccccc1)NC(=O)OC(C)(C)C)C(=O)NCc1ccccc1,Ki,-,HPLC,-,0.00071 µM
CC1(C)S[C@@H]2[C@H](NC(=O)Cc3ccccc3)C(=O)N2[C@H]1C(=O)NCCNC(=O)[C@@H]1N2C(=O)[C@@H](NC(=O)Cc3ccccc3)[C@H]2SC1(C)C,IC50,-,HPLC,RF,0.06 µM
CC[C@@]1(O)C(=O)OCc2c1cc1n(c2=O)Cc2c-1nc1ccccc1c2CO,IC50,-,fluorescence,-,>40 µg/mL
O=C1N(Cc2ccc(O)cc2)[C@H](Cc2ccccc2)[C@H](O)CN(Cc2ccccc2)N1Cc1ccc(O)cc1,IC50,-,fluorescence,-,0.0013 µM
Cc1c(C(c2ccccc2)(c2ccccc2)n2ccnc2)nnn1-c1ccccc1Cl,IC50,-,substrate cleavage / fluorescence,-,48.4 µg/mL
CCCCCCCCCCCCCCCC(=O)N[C@@H](Cc1ccccc1)C(=O)N[C@@H](CO)C(=O)N[C@H](C(=O)N[C@@H](CCC(=O)O)C(=O)N[C@@H](CC(C)C)C(=O)O)c1ccc(OC(=O)c2ccccc2)cc1,IC50,-,fluorescence,-,0.1 µM
O=[P@]12OC([C@@H](O)[C@@H](Cc3ccccc3)N1Cc1ccc(O)cc1)[C@@H](Cc1ccccc1)N2Cc1ccc(O)cc1,Ki,-,substrate cleavage,-,0.0049 µM
CC(=O)N[C@@H](Cc1ccccc1)C(=O)N[C@@H](CO)C(=O)N[C@H](C(=O)N[C@@H](CCC(=O)O)C(=O)N[C@@H](CC(C)C)C(=O)O)c1ccc(OC(=O)c2ccccc2)cc1,IC50,-,fluorescence,-,300.6 µM
CC(C)(C)OC(=O)N[C@@H](Cc1ccccc1)[C@@H](O)C[C@H](Cc1ccccc1)C(=O)N[C@@H](CCC(=O)O)C(=O)N[C@@H](Cc1ccccc1)C(N)=O,Ki,-,absorbance,-,0.00015 µM
CC(C)[C@H](NC(=O)[C@@H](NC(=O)C(Cc1ccccc1)CP(=O)(O)C(Cc1ccccc1)NC(=O)[C@@H](NC(=O)[C@@H](NC(=O)OC(C)(C)C)C(C)C)C(C)C)C(C)C)C(N)=O,Ki,-,-,-,0.0004 µM
Cc1cccc(C)c1OCC(=O)N[C@@H](Cc1ccccc1)[C@H](O)CN1CC[C@@H](Sc2ccncc2)C[C@H]1C(=O)NC(C)(C)C,Ki,-,fluorescence,IIIB,0.0000055 µM
CC(C)CCC[C@@H](C)[C@H]1CC[C@H]2[C@@H]3CC[C@H]4C[C@@H](CCC=C(c5cc(Cl)c(O)c(C(=O)O)c5)c5cc(Cl)c(O)c(C(=O)O)c5)CC[C@]4(C)[C@H]3CC[C@]12C,IC50,-,HPLC,-,0.55 µM
Cc1ccccc1CNC(=O)[C@H]1N(C(=O)[C@@H](O)[C@H](Cc2ccc3c(c2)OCO3)NC(=O)c2cccc(O)c2C)CSC1(C)C,IC50,-,HPLC,-,<0.05 µg/mL
CC(C)[C@H](NC(=O)CCc1ccccn1)C(=O)N[C@@H](Cc1ccccc1)[C@@H](O)[C@H](O)[C@H](Cc1ccccc1)NC(=O)[C@@H](NC(=O)CCc1ccccn1)C(C)C,IC50,-,fluorescence,-,<0.001 µM
CC(C)CCC[C@@H](C)[C@H]1CC[C@H]2[C@@H]3CC=C4C[C@H](SC[C@@H]5CC[N+]6=C(N[C@H](CSCC(=O)NCC(=O)N[C@@H](C)C(=O)N[C@H](C(=O)N[C@@H](CC(C)C)C(=O)N[C@@H](CC(N)=O)C(=O)N[C@@H](Cc7ccccc7)C(=O)OCc7ccccc7)[C@@H](C)OCc7ccccc7)CC6)N5)CC[C@]4(C)[C@H]3CC[C@]12C,IC50,-,fluorescence,-,3 µM
O=C1N(CC2CC2)[C@H](Cc2ccccc2)[C@H](O)CN(Cc2ccccc2)N1CC1CC1,IC50,-,fluorescence,-,0.0013 µM
CC[C@H](C)[C@H](NC(=O)[C@H](Cc1ccccc1)C[C@@H](O)[C@H](Cc1ccccc1)NC(=O)OC(C)(C)C)C(=O)N[C@@H](Cc1ccccc1)C(N)=O,Ki,-,absorbance,-,0.0014 µM
CCCCCCCCCCCCCCCC(=O)N[C@@H](Cc1ccc(O)cc1)C(=O)N[C@@H](CCC(=O)O)C(=O)N[C@@H](Cc1ccc(-c2ccccc2)cc1)C(=O)O,IC50,-,fluorescence,-,0.025 µM
CCOc1ccc(C[C@H](NC(=O)c2cccc(N)c2Cl)[C@H](O)C(=O)N2CSC(C)(C)[C@H]2C(=O)NCc2ccccc2C)cc1,IC50,-,HPLC,-,<0.05 µg/mL
CCC(c1ccccc1)c1c(O)cc(CCc2ccccc2)oc1=O,Ki,-,absorbance,-,0.005 µM
CC(C)[C@H](NS(=O)(=O)N(C)Cc1ccccn1)C(=O)N[C@@H](Cc1ccccc1)[C@H](O)[C@H](O)[C@H](Cc1ccccc1)NC(=O)[C@@H](NS(=O)(=O)N(C)Cc1ccccn1)C(C)C,IC50,-,fluorescence,-,<0.1 µM
NCCCC[C@H](NC(=O)[C@@H](N)CCC(=O)O)C(=O)N[C@@H](Cc1ccccc1)C(=O)O,Ki,-,-,-,2010 µM
CCN[C@H]1CO[C@@H]2OC[C@H](OC(=O)N[C@@H](Cc3cc(F)cc(F)c3)[C@H](O)CN(CC(C)C)S(=O)(=O)c3ccc4nc(NC5CC5)sc4c3)[C@@H]21,Ki,-,substrate cleavage / fluorescence,-,0.0002 µM
Cc1cnc(C(=O)Nc2ccccc2C(=O)N[C@@H](Cc2ccccc2)[C@H](O)[C@H](O)[C@H](Cc2ccccc2)NC(=O)c2ccccc2NC(=O)c2cnc(C)cn2)cn1,Ki,-,-,-,>10 µM
O=C(NCCO)[C@H](OCc1ccccc1)[C@H](O)[C@@H](O)[C@@H](OCc1ccccc1)C(=O)N[C@H]1c2ccccc2C[C@H]1O,Ki,-,fluorescence,-,0.2 µM
CC(C)(C)OC(=O)N[C@@H](Cc1ccccc1)[C@@H](O)C[C@@H](Cc1ccccc1)C(=O)N[C@H]1c2ccccc2[C@@H](O)[C@H]1O,IC50,-,-,-,0.0001 µM
Cc1ccccc1CNC(=O)[C@H]1N(C(=O)[C@@H](O)[C@H](Cc2ccc(C(C)C)cc2)NC(=O)c2cccc(O)c2C)CSC1(C)C,IC50,-,HPLC,-,<0.05 µg/mL
CCCCCCCC(=O)N[C@@H](Cc1ccc(O)cc1)C(=O)N[C@@H](CCC(=O)O)C(=O)N[C@H](C=O)CC(C)C,Ki,-,fluorescence,-,1 µM
CCOc1ccc(C[C@H](NC(=O)c2cccc(O)c2C)[C@H](O)C(=O)N2CSC(C)(C)[C@H]2C(=O)NCc2ccccc2C)cc1,IC50,-,HPLC,-,<0.05 µg/mL
CCCCCCCCCCCCCCCC(=O)N[C@@H](Cc1ccccc1)C(=O)N[C@@H](CO)C(=O)N[C@@H](Cc1ccc(O)cc1)C(=O)N[C@@H](CCC(=O)O)C(=O)N[C@@H](CC(C)C)C(=O)O,IC50,-,fluorescence,-,~0.1 µM
CC(C)[C@H](NC(=O)OCc1ccccn1)C(=O)NC(Cc1ccccc1)C(O)C(F)(F)C(Cc1ccccc1)NC(=O)OC(C)(C)C,IC50,-,fluorescence,-,~0.01 µM
O=C(NC1CCc2ccccc21)[C@H](OCc1cccc(F)c1)[C@H](O)[C@@H](O)[C@@H](OCc1cccc(F)c1)C(=O)N[C@H]1CCc2ccccc21,Ki,-,-,-,0.05 µM
O=C(NCc1ccc(F)cc1F)[C@H](OCc1ccccc1)[C@H](O)[C@@H](O)[C@@H](OCc1ccccc1)C(=O)N[C@H]1c2ccccc2C[C@H]1O,Ki,-,fluorescence,-,0.02 µM
CC(C)[C@H](NC(=O)[C@H](Cc1ccccc1)NC(=O)OCc1ccccc1)C(=O)N[C@@H](Cc1ccccc1)[C@@H](O)[C@@H](O)[C@@H](Cc1ccccc1)NC(=O)[C@@H](NC(=O)[C@H](Cc1ccccc1)NC(=O)OCc1ccccc1)C(C)C,Ki,-,-,-,0.0026 µM
CNC(=O)[C@@H](NC(=O)[C@H](OCc1ccccc1)[C@H](O)[C@@H](O)[C@@H](OCc1ccccc1)C(=O)N[C@H](C(=O)NC)C(C)C)C(C)C,Ki,-,fluorescence,-,0.0006 µM
CC(=O)N[C@@H](Cc1ccc(O)cc1)C(=O)N[C@@H](CCC(=O)O)C(=O)N[C@@H](Cc1c[nH]c2ccccc12)C(=O)O,IC50,-,fluorescence,-,21 µM
CCC(c1ccccc1)c1c(O)c2c(oc1=O)C(Cc1ccccc1)CCCCC2,Ki,-,substrate cleavage,-,0.266 µM
CC(C)[C@H](NC(=O)c1ccc2ccccc2n1)C(=O)N[C@@H](Cc1ccccc1)[C@H](O)CN1CC[C@@H](SCc2cccnc2)C[C@H]1C(=O)NC(C)(C)C,Ki,PR-I84V,fluorescence,-,0.000027 µM
CC(C)[C@H](NC(=O)c1ccc2ccccc2n1)C(=O)N[C@@H](Cc1ccccc1)[C@H](O)CN1CC[C@@H](OCc2ccncc2)C[C@H]1C(=O)NC(C)(C)C,IC50,-,fluorescence,IIIB,0.004 µM
CCN[C@H]1CO[C@@H]2OC[C@H](OC(=O)N[C@@H](Cc3ccccc3)[C@H](O)CN(CC(C)C)S(=O)(=O)c3ccc4nc(NC5CC5)sc4c3)[C@@H]21,Ki,-,substrate cleavage / fluorescence,-,0.0002 µM
CC(C)[C@H](N)C(=O)N[C@@H](Cc1ccccc1)C(O)[C@H](Cc1ccccc1)NC(=O)[C@@H](NC(=O)OCc1ccccc1)C(C)C,IC50,-,fluorescence,-,<0.01 µM
COc1ccc(C[C@H](NC(=O)c2cccc(N)c2Cl)[C@H](O)C(=O)N2CSC(C)(C)[C@H]2C(=O)NCc2ccccc2C)cc1,IC50,-,HPLC,-,<0.05 µg/mL

6 of the rows above, restated:

structure,endpoint,changes,method,strain,value
Cc1ccccc1CNC(=O)[C@H]1N(C(=O)[C@@H](O)[C@H](Cc2ccc3c(c2)OCO3)NC(=O)c2cccc(O)c2C)CSC1(C)C,IC50,-,HPLC,-,<0.05 µg/mL
O=[P@]12OC([C@@H](O)[C@@H](Cc3ccccc3)N1Cc1ccc(CO)cc1)[C@@H](Cc1ccccc1)N2Cc1ccc(CO)cc1,Ki,-,substrate cleavage,-,0.0006 µM
Cc1cnc(C(=O)Nc2ccccc2C(=O)N[C@@H](Cc2ccccc2)[C@H](O)[C@H](O)[C@H](Cc2ccccc2)NC(=O)c2ccccc2NC(=O)c2cnc(C)cn2)cn1,Ki,-,-,-,>10 µM
O=C(NCCO)[C@H](OCc1ccccc1)[C@H](O)[C@@H](O)[C@@H](OCc1ccccc1)C(=O)N[C@H]1c2ccccc2C[C@H]1O,Ki,-,fluorescence,-,0.2 µM
CC(=O)N[C@@H](Cc1ccc(O)cc1)C(=O)N[C@@H](CCC(=O)O)C(=O)N[C@@H](Cc1c[nH]c2ccccc12)C(=O)O,IC50,-,fluorescence,-,21 µM
CCCCCCCCCCCCCCCC(=O)N[C@@H](Cc1ccccc1)C(=O)N[C@@H](CO)C(=O)N[C@H](C(=O)N[C@@H](CCC(=O)O)C(=O)N[C@@H](CC(C)C)C(=O)O)c1ccc(OC(=O)c2ccccc2)cc1,IC50,-,fluorescence,-,0.1 µM